“And” between values parts separate entries of the source, which are not always exact repeats. Equal entries are not always repeated.

These results are taken from patent EP1951748B1, “HEPATITIS C VIRUS VARIANTS” (Vertex Pharmaceuticals, Inc., priority 2005, dated 2007).

The subject of assay [1] is HCV NS3 protease R155T. The conditions noted are these: enzyme IC50 of R155T compared to the genotype 1a HCV-H reference strain, 15 min.
The subject of assay [2] is HCV NS3 protease R155K. The conditions noted are these: enzyme IC50 of R155K compared to the genotype 1a HCV-H reference strain, 15 min.
Assay [3] deals with HCV NS3 protease V36M. The note with it: enzyme IC50 of V36M compared to the genotype 1a HCV-H reference strain, 15 min.
For assay [4], the system named is HCV NS3 protease T54S.
Assay [5] has as its system HCV NS3 protease V36L. The note with it: enzyme IC50 of V36L compared to the genotype 1a HCV-H reference strain; 15 min.

For the molecule `COc1ccc2c(O[C@@H]3C[C@H]4C(=O)N[C@]5(C(=O)O)C[C@H]5/C=C\CCCCC[C@H](NC(=O)OC5CCCC5)C(=O)N4C3)cc(-c3csc(NC(C)C)n3)nc2c1` [BILN 2061], the Fold change in assay [1] was 151 and 174; in assay [2], 137 and >183; in assay [3], 0.5 and 0.4; in assay [4] (enzyme IC50 of T54S compared to the genotype 1a HCV-H reference strain, 15 min), 0.8; in assay [5], 0.5. Moreover, the IC50 (as a rule, the point on the concentration scale where inhibition reaches its midpoint) in assay [4] (T54S) is 3.6 nM.
